Publication PMC5465072, “Targeting Bacillus anthracis toxicity with a genetically selected inhibitor of the PA/CMG2 protein-protein interaction” (Scientific Reports, 2017)

The chains behind the UniProt entries cited, without tags or fusion partners. Residues count along the entry.
UniProt P58335, 38-218 limits assumed: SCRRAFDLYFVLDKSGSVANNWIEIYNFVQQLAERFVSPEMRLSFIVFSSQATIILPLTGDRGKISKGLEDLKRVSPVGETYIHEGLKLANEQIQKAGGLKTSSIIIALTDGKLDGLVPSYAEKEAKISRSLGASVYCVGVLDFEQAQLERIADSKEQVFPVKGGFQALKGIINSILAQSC

Molecular target: CMG2_38–218 (Homo sapiens, UniProt P58335)
Experiment: Microscale thermophoresis (MST) binding to CMG2
Details: relative to CLRFT

SMILES | fold reduction in binding affinity for CMG2 (partly printed as reduction in Kd) versus CLRFT | fold increase in affinity for CMG2 versus CLRFT
CC(C)C[C@H](NC(=O)[C@@H](N)CS)C(=O)N[C@@H](CCCNC(=N)N)C(=O)N[C@@H](Cc1ccc(C#N)cc1)C(=O)N[C@H](C(=O)O)[C@@H](C)O | 2 fold | –
CC(C)C[C@H](NC(=O)[C@@H](N)CS)C(=O)N[C@@H](CCCNC(=N)N)C(=O)N[C@@H](CCc1ccccc1)C(=O)N[C@H](C(=O)O)[C@@H](C)O | 2.5 fold | –
CC(C)C[C@H](NC(=O)[C@@H](N)CS)C(=O)N[C@@H](CCCNC(=N)N)C(=O)N[C@@H](Cc1ccc(O)cc1)C(=O)N[C@H](C(=O)O)[C@@H](C)O | 3 fold | –
CC(C)C[C@H](NC(=O)[C@@H](N)CS)C(=O)N[C@@H](CCCNC(=N)N)C(=O)N[C@H](C(=O)N[C@H](C(=O)O)[C@@H](C)O)c1ccccc1 | 2 fold | –
CC(C)C[C@H](NC(=O)[C@@H](N)CS)C(=O)N[C@@H](CCCNC(=N)N)C(=O)N[C@@H](Cc1ccc(Cl)cc1)C(=O)N[C@H](C(=O)O)[C@@H](C)O | – | 2 fold
